From publication PMC4476580, “Novel Broad Spectrum Inhibitors Targeting the Flavivirus Methyltransferase” (PLoS ONE, 2015) come the findings set out here.

This data set has as its system WNV. The data set is described as follows: Viral titer reduction assay. The note with it: CC50/EC50.
In the case of `O=C1CN2CCN(CC2)CC(=O)Nc2ccc(cc2)S(=O)(=O)c2ccc(cc2)NC(=O)CN2CCN(CC2)CC(=O)Nc2ccc(cc2)S(=O)(=O)c2ccc(cc2)N1` [NSC 36806], the Therapeutic index was ~1.

`Cc1nn(-c2ccc(S(=O)(=O)[O-])cc2)c([O-])c1N=Nc1ccc(-c2ccc(N=Nc3ccc4c(S(=O)(=O)[O-])cc(S(=O)(=O)[O-])c(N)c4c3[O-])c([O-])c2)cc1[O-].[Cu+2].[Cu+2].[H+].[H+].[H+]` [NSC 306711] gave a Therapeutic index of 332.

With `CN1CCN(c2ccc3[nH]c(-c4ccc5[nH]c(-c6ccc(O)cc6)nc5c4)nc3c2)CC1` [NSC 322921], the Therapeutic index was ~2.5.

`CC1=C(Nc2c(C)cc(O)cc2O)C(=O)C=c2oc3c(c21)C(C)=C(Nc1c(C)cc(O)cc1O)C(=O)C=3` [NSC 610930]: the Therapeutic index was determined as 9.3.
